Measured data: PubChem BioAssay AID624099 (ICCB-Longwood, 2012)
In all, the deposit lists about 21,000 reagents; shown is a random part of them. 497 of them (2.4%) were called active. 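Higher z means weaker E2 silencing; only reporter increases were scored, and knock-downs that hurt cell survival may mask genuine repressor factors.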 Unmarked entries are inactive. Reagents against one gene are numbered here.

Aim: 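Human genes that papillomavirus E2 requires to repress the HPV18 LCR promoter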 (primary screen)
Cells: human C33A cervical carcinoma cells (HPV-negative) stably expressing BPV1 E2 and an HPV18 LCR luciferase reporter
Reagents: siRNA pool against human genes, 40 nM
Time to read-out: 72 h
Detection: 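Per-well luciferase luminescence, z-scored on each plate against the plate mean and SD with control wells left out, then averaged across three replicate plates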
Direction: mean z-score and z-score: higher = stronger reporter signal, weaker E2 silencing
Hit rule: 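Mean z ≥ 2 together with z ≥ 2 in two or more of the three replicates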

The opening 5 entries, to show the layout:
gene,pool no.,mean z-score,"z-score, replicate A","z-score, replicate B","z-score, replicate C"
NOAZFP (nucleolar atypical zinc finger),1,0.04,-0.03,-0.05,0.18
BICDL1 (BICD family like cargo adaptor 1),1,0.32,0.69,0.17,0.11
RBM39 (RNA binding motif protein 39),1,-0.62,-0.67,-0.51,-0.66
ABCA4 (ATP binding cassette subfamily A member 4),1,-0.83,-0.62,-0.81,-1.07
WSB2 (WD repeat and SOCS box containing 2),1,0.12,-0.21,0.37,0.21

The listing, repeating the preview:
gene,pool no.,mean z-score,"z-score, replicate A","z-score, replicate B","z-score, replicate C"
NOAZFP (nucleolar atypical zinc finger),1,0.04,-0.03,-0.05,0.18
BICDL1 (BICD family like cargo adaptor 1),1,0.32,0.69,0.17,0.11
RBM39 (RNA binding motif protein 39),1,-0.62,-0.67,-0.51,-0.66
ABCA4 (ATP binding cassette subfamily A member 4),1,-0.83,-0.62,-0.81,-1.07
WSB2 (WD repeat and SOCS box containing 2),1,0.12,-0.21,0.37,0.21
SLC16A4,1,-0.93,-0.9,-0.78,-1.1
XPNPEP3 (X-prolyl aminopeptidase 3),1,-0.17,-0.17,-0.57,0.24
POLDIP2 (DNA polymerase delta interacting protein 2),1,1.17,1.03,1.55,0.94
AMDHD1 (amidohydrolase domain containing 1),1,0.92,0.68,1.24,0.82
PRP4K (pre-mRNA processing factor kinase PRP4K),1,-1.56,-1.66,-1.47,-1.54
FLJ44796 (retired record),1,-1.05,-1.48,-0.77,-0.89
LOC158812 (retired record),1,-1.75,-1.56,-1.97,-1.72
SAMD4A (sterile alpha motif domain containing 4A),1,0.58,0.76,0.53,0.44
VSTM2A (V-set and transmembrane domain containing 2A),1,-0.78,-0.85,-0.7,-0.79
MARK2P10 (MARK2 pseudogene 10),1,-0.68,-0.75,-0.7,-0.58
MARK2P10 (MARK2 pseudogene 10),2,-1.26,-1.52,-1.04,-1.23
MEX3A (mex-3 RNA binding family member A),1,-0.57,-0.63,-0.54,-0.56
SECISBP2 (SECIS binding protein 2),1,-0.5,-0.37,-0.54,-0.59
MCUB,1,0.22,0.28,0.46,-0.08
RAD52 (RAD52 DNA repair protein),1,0.67,0.62,0.88,0.5
CDCA2 (cell division cycle associated 2),1,-0.18,-0.5,0.15,-0.18
INTS14 (integrator complex subunit 14),1,0.14,0.33,0.21,-0.12
EIF3E (eukaryotic translation initiation factor 3 subunit E),1,-2.56,-2.47,-2.96,-2.25
LRRC32 (leucine rich repeat containing 32),1,-0.07,0.19,-0.16,-0.25
"POLR2H (RNA polymerase II, I and III subunit H)",1,0.13,0.01,0.22,0.17
RPS6KB1 (ribosomal protein S6 kinase B1),1,0.08,-0.09,0.27,0.06
R3HCC1 (R3H domain and coiled-coil containing 1),1,1.06,0.75,1.1,1.34
DCUN1D1 (defective in cullin neddylation 1 domain containing 1),1,0.06,-0.32,0.28,0.22
UHRF1 (ubiquitin like with PHD and ring finger domains 1),1,-1.17,-1.15,-1.28,-1.07
GAGE2C (G antigen 2C),1,-0.37,-0.42,-0.48,-0.21
RPL23AP14 (ribosomal protein L23a pseudogene 14),1,-0.21,-0.07,-0.18,-0.39
TMEM132E (transmembrane protein 132E),1,-0.57,-0.74,-0.57,-0.4
DENND10 (DENN domain containing 10),1,-0.15,-0.42,0.04,-0.07
LY96 (lymphocyte antigen 96),1,0.75,0.62,0.81,0.81
LOC389907 (retired record),1,-0.31,-0.41,-0.2,-0.31
PCSK1N (proprotein convertase subtilisin/kexin type 1 inhibitor),1,-0.28,0.11,-0.32,-0.62
OR10G8 (olfactory receptor family 10 subfamily G member 8),1,0.42,0.57,0.81,-0.12
PLEKHG2 (pleckstrin homology and RhoGEF domain containing G2),1,0.12,0,0.2,0.16
TTF2 (transcription termination factor 2),1,-0.25,-0.23,-0.3,-0.22
MT-ND4L (mitochondrially encoded NADH 4L dehydrogenase),1,1.92,2.25,1.95,1.55
TMEM186 (transmembrane protein 186),1,0.79,0.18,1.06,1.12
FCRL3 (Fc receptor like 3),1,1.58,1.84,1.35,1.55
RGS1 (regulator of G protein signaling 1),1,-0.81,-0.46,-1.03,-0.94
MUCL3 (mucin like 3),1,-0.36,-0.46,-0.37,-0.24
FLCN (folliculin),1,-0.22,0,-0.32,-0.34
ADA (adenosine deaminase),1,-1.12,-0.77,-1.17,-1.43
DLX6-AS1 (DLX6 antisense RNA 1),1,-1.16,-1.13,-1.27,-1.07
UBAP2L (ubiquitin associated protein 2 like),1,-0.42,-0.64,-0.14,-0.48
MB (myoglobin),1,-1.09,-1.13,-0.93,-1.22
AVIL (advillin),1,0.82,1.05,0.51,0.9
ITCH (itchy E3 ubiquitin protein ligase),1,1.12,1.2,1.23,0.91
CLOCK (clock circadian regulator),1,-1,-1.08,-0.95,-0.97
MTHFSD (methenyltetrahydrofolate synthetase domain containing),1,-0.31,-0.27,-0.69,0.04
GOLM1 (golgi membrane protein 1),1,-0.27,-0.19,-0.75,0.14
CXCL10 (C-X-C motif chemokine ligand 10),1,-0.23,-0.06,-0.18,-0.46
SNCB (synuclein beta),1,0.2,0.32,-0.03,0.32
ACOT6 (acyl-CoA thioesterase 6),1,-0.03,-0.08,0.21,-0.21
